This assay concerns Pyricularia oryzae. Briefly: Pyricularia test (rice)/Induction of resistance. The conditions noted are these: application rate 750 g/ha; inoculated 5 days after treatment; evaluation 4 days after inoculation.
As for `CN(C)CCOC(=O)c1snc(Cl)c1Cl`, the Efficacy in % stood at 90%. For the compound `Cc1ccc(CCOC(=O)c2snc(Cl)c2Cl)cc1`, the Efficacy in % is on record as 100%. For the compound `O=C(SCc1ccccc1Cl)c1snc(Cl)c1Cl`, the Efficacy in % is 90%.

`O=C(OCCOCc1ccccc1)c1snc(Cl)c1Cl` [Example 5] had an Efficacy in % of 80%. With `COC(=O)c1ccc(OCCOC(=O)c2snc(Cl)c2Cl)cc1` [Example 6], the Efficacy in % came out at 90%. Next, `O=C(OCCOc1ccc(Cl)cc1)c1snc(Cl)c1Cl` [Example 10]: 70%; `O=C(OCCc1ccc(Cl)cc1)c1snc(Cl)c1Cl` [Example 13]: 100%; `CSC(=O)c1snc(Cl)c1Cl` [Example 15]: 90%. `CC(C)CSC(=O)c1snc(Cl)c1Cl` [Example 17] showed an Efficacy in % of 100%. Next, `Cc1ccc(C(C)OC(=O)c2snc(Cl)c2Cl)cc1` (stereo not shown) [Example 19]: 90%.

The record behind these values is patent publication US6191155A (priority 1997, dated 2001).
